Taken from: PubChem BioAssay AID504761 (Drosophila RNAi Screening Center, 2011)
The screen tested about 22,000 reagents; this is an unselected part of those with a known target gene and a result. Over the whole deposit, 116 (0.52%) were called active. 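Calls depend on retest data that are not deposited; infection was ranked per plate without normalising between plates; the unit of the infection score is not given.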 Raw values vary from plate to plate and are shown uncorrected. Unmarked entries are inactive. Reagents against one gene are numbered here. A plus sign joins genes that one reagent is predicted to hit. No sequences are given here. The record does not give: the amount of reagent, the time to read-out.

- Test: 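Fly genes whose silencing reduces dengue virus type 2 infection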 (primary screen)
- Cells: D.Mel-2 cells from Drosophila
- Reagent: long dsRNA against Drosophila genes
- Conditions: infection with dengue virus type 2; dose and infection time not stated
- Measurement: 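Per well on two replicate plates, imaging gave the percent of cells positive for viral envelope protein, ranked by infection, and a nuclear count of cells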
- Direction: infection score: higher = more virus-infected cells; cell count: higher = more cells in the well
- Hit rule: 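Very low infection ranking in both replicate wells (chance probability at most 0.065), then a retest showing infection dropped 1.5-fold or more at p below 0.05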
- Meaning of the calls: active = confirmed: knock-down lowers infection; inactive = not picked or not confirmed

CG8326 (GeneID 32738) #1 | infection score, replicate 1: 1.39; infection score, replicate 2: 1.19; cell count, replicate 1: 6407; cell count, replicate 2: 6069
CG8326 (GeneID 32738) #2 | infection score, replicate 1: 29.1; infection score, replicate 2: 16.3; cell count, replicate 1: 4414; cell count, replicate 2: 5484
CG31327 (GeneID 318684) | infection score, replicate 1: 1.11; infection score, replicate 2: 2.14; cell count, replicate 1: 6141; cell count, replicate 2: 5784
CG16837 (GeneID 37904) #1 | infection score, replicate 1: 2.96; infection score, replicate 2: 14.2; cell count, replicate 1: 6970; cell count, replicate 2: 5085
CG16837 (GeneID 37904) #2 | infection score, replicate 1: 4.65; infection score, replicate 2: 10.6; cell count, replicate 1: 2602; cell count, replicate 2: 5476
CG5003 (GeneID 43344) #1 | infection score, replicate 1: 18.3; infection score, replicate 2: 16.4; cell count, replicate 1: 6486; cell count, replicate 2: 6470
CG5003 (GeneID 43344) #2 | infection score, replicate 1: 1.42; infection score, replicate 2: 0.74; cell count, replicate 1: 5979; cell count, replicate 2: 6066

3 entries already listed, sorted by “infection score, replicate 2”, lowest first:
CG8326 (GeneID 32738) #1 | infection score, replicate 1: 1.39; infection score, replicate 2: 1.19; cell count, replicate 1: 6407; cell count, replicate 2: 6069
CG31327 (GeneID 318684) | infection score, replicate 1: 1.11; infection score, replicate 2: 2.14; cell count, replicate 1: 6141; cell count, replicate 2: 5784
CG8326 (GeneID 32738) #2 | infection score, replicate 1: 29.1; infection score, replicate 2: 16.3; cell count, replicate 1: 4414; cell count, replicate 2: 5484

Additional records:
c-cup (GeneID 33360) | infection score, replicate 1: 3.36; infection score, replicate 2: 1.46; cell count, replicate 1: 6392; cell count, replicate 2: 7038
Eig71Eb (GeneID 39701) | infection score, replicate 1: 1.01; infection score, replicate 2: 4.13; cell count, replicate 1: 5630; cell count, replicate 2: 5760
CG6865 (GeneID 40050) | infection score, replicate 1: 4.77; infection score, replicate 2: 5.25; cell count, replicate 1: 6966; cell count, replicate 2: 6762
CG42319 (GeneID 36473) #1 | infection score, replicate 1: 16.8; infection score, replicate 2: 4.96; cell count, replicate 1: 5627; cell count, replicate 2: 6256
CG42319 (GeneID 36473) #2 | infection score, replicate 1: 9.51; infection score, replicate 2: 29.2; cell count, replicate 1: 1599; cell count, replicate 2: 5823
CG42319 (GeneID 36473) #3 | infection score, replicate 1: 2.39; infection score, replicate 2: 7.81; cell count, replicate 1: 6069; cell count, replicate 2: 6726
CG42319 (GeneID 36473) #4 | infection score, replicate 1: 2.98; infection score, replicate 2: 1.67; cell count, replicate 1: 6237; cell count, replicate 2: 6216
fw (GeneID 32162) #1 | infection score, replicate 1: 6.28; infection score, replicate 2: 3.78; cell count, replicate 1: 6386; cell count, replicate 2: 7009
fw (GeneID 32162) #2 | infection score, replicate 1: 3.35; infection score, replicate 2: 8.5; cell count, replicate 1: 6473; cell count, replicate 2: 6788
zf30C (GeneID 34292) | infection score, replicate 1: 5.65; infection score, replicate 2: 13.2; cell count, replicate 1: 5146; cell count, replicate 2: 4142
Aladin (GeneID 31881) #1 | infection score, replicate 1: 1.39; infection score, replicate 2: 1.29; cell count, replicate 1: 6614; cell count, replicate 2: 6067
Aladin (GeneID 31881) #2 | cell count, replicate 1: 352; cell count, replicate 2: 372
CG32188 + CG32189 | infection score, replicate 1: 20.8; infection score, replicate 2: 12; cell count, replicate 1: 3660; cell count, replicate 2: 4950
elm (GeneID 40695) | infection score, replicate 1: 17; infection score, replicate 2: 13.7; cell count, replicate 1: 4822; cell count, replicate 2: 6999
